Test results published in patent publication US10786484B2, “Mono- or di-substituted indole derivatives as dengue viral replication inhibitors” (Janssen Pharmaceuticals, Inc., priority 2015, dated 2020).

Assays:
Assay type in all cases: cell-based, Dengue virus
[1] = tested on: DENV-2 16681 strain labeled with eGFP; assay: DENV-2 antiviral assay (eGFP fluorescence read-out in Vero cells); conditions: SI=CC50/EC50, DENV-2 antiviral assay
Method: The antiviral activity of all the compounds of the invention was tested against the DENV-2 16681 strain which was labeled with enhanced green fluorescent protein (eGPF). The culture medium consists of minimal essential medium supplemented with 2% of heat-inactivated fetal calf serum, 0.04% gentamycin (50 mg/mL) and 2 mM of L-glutamine. Vero cells, obtained from ECACC, were suspended in culture medium and 25 μL was added to 384-well plates (2500 cells/well), which already contain the antiviral compounds. Typically, these plates contain a 5-fold serial dilution of 9 dilution steps of the test compound at 200 times the final concentration in 100% DMSO (200 nL). […] Finally, each plate contains wells which are assigned as virus controls (containing cells and virus in the absence of compound), cell controls (containing cells in the absence of virus and compound) and medium controls (containing medium in the absence of cells, virus and compounds). To the wells assigned as medium control, 25 μL of culture medium was added instead of Vero cells. Once the cells were added to the plates, the plates were incubated for 30 minutes at room temperature to allow the cells to distribute evenly within the wells. Next, the plates were incubated in a fully humidified incubator (37° C., 5% CO2) until the next day. Then, DENV-2 strain 16681, labeled with eGFP, was added at a multiplicity of infection (MOI) of 0.5. Therefore, 15 μL of virus suspension was added to all the wells containing test compound and to the wells assigned as virus control. In parallel, 15 μL of culture medium was added to the medium and cell controls. Next, the plates were incubated for 3 days in a fully humidified incubator (37° C., 5% CO2). At the day of the read out, the eGFP fluorescence was measured using an automated fluorescence microscope at 488 nm (blue laser). Using an in-house LIMS system, inhibition dose response curves for each compound were calculated and the half maximal effective concentration (EC50) was determined. Therefore, the percent inhibition (I) for every test concentration is calculated using the following formula: I=100*([…])/(SVC−SCC); ST, SCC and SVC are the amount of eGFP signal in the test compound, cell control and virus control wells, respectively. The EC50 represents the concentration of a compound at which the virus replication is inhibited with 50%, as measured by a 50% reduction of the eGFP fluorescent intensity compared to the virus control. The EC50 is calculated using linear interpolation (Table 1).

[2] = tested on: DENV-1 strain TC974#666; assay: Tetravalent RT-qPCR assay Protocol A, serotype 1; conditions: RT-qPCR serotype 1 TC974#666
Method: (§1) The antiviral activity of the compounds of the invention was tested against DENV-1 strain TC974#666 (NCPV), DENV-2 strain 16681, DENV-3 strain H87 (NCPV) and DENV-4 strains H241 (NCPV) and EDEN (SG/06K2270DK1/2005; GenBank accession number QG398256) in a RT-qPCR assay. Therefore, Vero cells were infected with either DENV-1, or -2, or -3, or -4 in the presence or absence of test compounds. At day 3 post-infection, the cells were lysed and cell lysates were used to prepare cDNA of both a viral target (the 3′UTR of DENV; Table 2) and a cellular reference gene (β-actin, Table 2). Subsequently, a duplex real time PCR was performed on a Lightcycler480 instrument. The generated Cp value is inversely proportional to the amount of RNA expression of these targets. Inhibition of DENV replication by a test compound results in a shift of Cp's for the 3′UTR gene. On the other hand, if a test compound is toxic to the cells, a similar effect on β-actin expression will be observed. The comparative ΔΔCp method is used to calculate EC50, which is based on the relative gene expression of the target gene (3′UTR) normalized with the cellular housekeeping gene (β-actin). In addition, CC50 values are determined based on the Cp values acquired for the housekeeping gene β-actin.
(§2) The culture medium consisted of minimal essential medium supplemented with 2% of heat-inactivated fetal calf serum, 0.04% gentamycin (50 mg/mL) and 2 mM of L-glutamine. Vero cells, obtained from ECACC, were suspended in culture medium and 75 μL/well was added in 96-well plates (10000 cells/well), which already contain the antiviral compounds. […] In addition, each plate contains wells which are assigned as virus controls (containing cells and virus in the absence of compound) and cell controls (containing cells in the absence of virus and compound). Once the cells were added in the plates, the plates were incubated in a fully humidified incubator (37° C., 5% CO2) until the next day. Dengue viruses serotype-1, 2, 3 and 4 were diluted in order to obtain a Cp of ˜22-24 in the assay. Therefore, 25 μL of virus suspension, was added to all the wells containing test compound and to the wells assigned as virus control. In parallel, 25 μL of culture medium was added to the cell controls. Next, the plates were incubated for 3 days in a fully humidified incubator (37° C., 5% CO2). After 3 days, the supernatant was removed from the wells and the cells were washed twice with ice-cold PBS (−100 μL). The cell pellets within the 96-well plates were stored at −80° C. for at least 1 day. Next, RNA was extracted using the Cells-to-CT™ lysis kit, according to the manufacturer's guideline (Life Technologies). The cell lysates can be stored at −80° C. or immediately used in the reverse transcription step.
(§3) In preparation of the reverse transcription step, mix A (table 3A) was prepared and 7.57 μL/well was dispensed in a 96-well plate. After addition of 5 μL of the cell lysates, a five minute denaturation step at 75° C. was performed (table 3B). Afterwards, 7.43 μL of mix B was added (table 3C) and the reverse transcription step was initiated (table 3D) to generate cDNA.
(§4) Finally, a RT-qPCR mix was prepared, mix C (table 4A), and 22.02 μL/well was dispensed in 96-well LightCycler qPCR plates to which 3 μL of cDNA was added and the qPCR was performed according to the conditions in table 4B on a LightCycler 480.
(§5) Using the LightCycler software and an in-house LIMS system, dose response curves for each compound were calculated and the half maximal effective concentration (EC50) and the half maximal cytotoxic concentration (CC50) were determined (Tables 5-8).

[3] = tested on: DENV-2 strain 16681; assay: Tetravalent RT-qPCR assay Protocol A, serotype 2; conditions: RT-qPCR serotype 2 16681
Method: as §1, §2, §3, §4, §5

[4] = tested on: DENV-3 strain H87; assay: Tetravalent RT-qPCR assay Protocol A, serotype 3; conditions: RT-qPCR serotype 3 H87
Method: as §1, §2, §3, §4, §5

[5] = tested on: DENV-4 strain H241; assay: Tetravalent RT-qPCR assay Protocol A, serotype 4 H241; conditions: RT-qPCR serotype 4 H241
Method: as §1, §2, §3, §4, §5

[6] = tested on: DENV-4 strain EDEN (SG/06K2270DK1/2005); assay: Tetravalent RT-qPCR assay Protocol A, serotype 4 EDEN; conditions: RT-qPCR serotype 4 EDEN
Method: as §1, §2, §3, §4, §5

Compound | SI [1] | SI [2] | SI [3] | SI [4] | SI [5] | SI [6]
COc1cc(NC(C(=O)c2c[nH]c3c(F)cc(C)cc23)c2ccc(F)cc2OCCO)cc(S(C)(=O)=O)c1 (single isomer, unassigned) [Compound 8A, 2-(4-fluoro-2-(2-hydroxyethoxy)phenyl)-1-(7-fluoro-5-methyl-1H-indol-3-yl)-2-((3-methoxy-5-(methylsulfonyl)phenyl)amino)ethanone] | 3620 | >1410 | 2160 | >75 | 4.9 | 
COc1cc(NC(C(=O)c2c[nH]c3cc(F)c(F)cc23)c2ccc(F)cc2OCCO)cc(S(C)(=O)=O)c1 (single isomer, unassigned) [Compound 5A, 1-(5,6-difluoro-1H-indol-3-yl)-2-(4-fluoro-2-(2-hydroxyethoxy)phenyl)-2-((3-methoxy-5-(methylsulfonyl)phenyl)-amino)ethanone] | 6320 | >862 | 5370 | >36 | >18 | >1250
COc1cc(NC(C(=O)c2c[nH]c3c(C)cc(OC(F)(F)F)cc23)c2ccc(F)cc2OCCO)cc(S(C)(=O)=O)c1 (single isomer, unassigned) [Compound 12A, 2-(4-fluoro-2-(2-hydroxyethoxy)phenyl)-2-((3-methoxy-5-(methylsulfonyl)phenyl)amino)-1-(7-methyl-5-(trifluoromethoxy)-1H-indol-3-yl)ethanone] | 22100 | >6740 | >20500 | >463 | 47 | 
COc1cc(NC(C(=O)c2c[nH]c3c(C)cc(Cl)cc23)c2ccc(F)cc2OCCO)cc(S(C)(=O)=O)c1 (single isomer, unassigned) [Compound 9A, 1-(5-chloro-7-methyl-1H-indol-3-yl)-2-(4-fluoro-2-(2-hydroxyethoxy)phenyl)-2-((3-methoxy-5-(methylsulfonyl)phenyl)amino)ethanone] | 6210 | >3350 | >4010 | >206 | >22 | 
COc1cc(NC(C(=O)c2c[nH]c3cc(F)c(C)cc23)c2ccc(F)cc2OCCO)cc(S(C)(=O)=O)c1 (single isomer, unassigned) [Compound 7A, 2-(4-fluoro-2-(2-hydroxyethoxy)phenyl)-1-(6-fluoro-5-methyl-1H-indol-3-yl)-2-((3-methoxy-5-(methylsulfonyl)phenyl)amino)ethanone] | 6080 | >2220 | 5870 | 126 | 17 | 
COc1cc(NC(C(=O)c2c[nH]c3ccc(OC(F)(F)F)cc23)c2ccc(F)cc2OCCO)cc(S(C)(=O)=O)c1 (single isomer, unassigned) [Compound 10B, 2-(4-fluoro-2-(2-hydroxyethoxy)phenyl)-2-((3-methoxy-5-(methylsulfonyl)phenyl)amino)-1-(5-(trifluoromethoxy)-1H-indol-3-yl)ethanone] | 21200 | >21400 | >100553 | >1630 | 89 | 
COc1cc(NC(C(=O)c2c[nH]c3c(C)c(Cl)ccc23)c2ccc(F)cc2OCCO)cc(S(C)(=O)=O)c1 (single isomer, unassigned) [Compound 4B, 1-(6-chloro-7-methyl-1H-indol-3-yl)-2-(4-fluoro-2-(2-hydroxyethoxy)phenyl)-2-((3-methoxy-5-(methylsulfonyl)phenyl)amino)ethanone] | >16800 | >836 | >12700 | >76 | 15 | >1231
COc1cc(NC(C(=O)c2c[nH]c3cc(OC)c(C)cc23)c2ccc(F)cc2OCCO)cc(S(C)(=O)=O)c1 (single isomer, unassigned) [Compound 6A, 2-(4-fluoro-2-(2-hydroxyethoxy)phenyl)-2-((3-methoxy-5-(methylsulfonyl)phenyl)amino)-1-(6-methoxy-5-methyl-1H-indol-3-yl)ethanone] | 8410 | 1140 | 6320 | 37 | 28 | 1048
COc1cc(NC(C(=O)c2c[nH]c3cc(OC)c(OC(F)(F)F)cc23)c2ccc(F)cc2OCCO)cc(S(C)(=O)=O)c1 (single isomer, unassigned) [Compound 11B, 2-(4-fluoro-2-(2-hydroxyethoxy)phenyl)-2-((3-methoxy-5-(methyl-sulfonyl)phenyl)amino)-1-(6-methoxy-5-(trifluoromethoxy)-1H-indol-3-yl)ethanone] | 24900 | >5380 | >43200 | >502 | >102 | 
COc1cc(NC(C(=O)c2c[nH]c3c(C)c(F)ccc23)c2ccc(F)cc2OCCO)cc(S(C)(=O)=O)c1 (single isomer, unassigned) [Compound 3A, 2-(4-fluoro-2-(2-hydroxyethoxy)phenyl)-1-(6-fluoro-7-methyl-1H-indol-3-yl)-2-((3-methoxy-5-(methylsulfonyl)phenyl)amino)ethanone] | 8380 | >1180 | >5560 | >80 | 15 | >1194
COc1cc(NC(C(=O)c2c[nH]c3cc(Cl)ccc23)c2ccc(F)cc2OCCO)cc(S(C)(=O)=O)c1 (single isomer, unassigned) [Compound 2A, 1-(6-chloro-1H-indol-3-yl)-2-(4-fluoro-2-(2-hydroxyethoxy)phenyl)-2-((3-methoxy-5-(methylsulfonyl)phenyl)amino)-ethanone] | 16800 | 1960 | 11100 | 64 | 19 | 1178
